Pooled drug test results. Numbers come from NIAID ChemDB, via PubChem.

All rows: toxicity to cultured cells; cells: VERO; endpoint: CC50

Neighbouring rows are from separate reports. Blank or dashed fields: not listed here. CCn: concentration that lowers growth or viability of the cells by n%.

structure	read by	result
c1ccc(Nc2c3ccccc3nc3oc4ccccc4c23)cc1	MTT	6.14 µg/mL
C[n+]1c(-c2ccc(/C=N/NC(=O)N/N=C/c3ccc(-c4cn5ccccc5[n+]4C)cc3)cc2)cn2ccccc21.Cc1ccc(S(=O)(=O)[O-])cc1.Cc1ccc(S(=O)(=O)[O-])cc1		>50 µg/mL
CCOC(=O)c1cnccn1	MTS	>657 µM
C[C@]12CC[C@H](O)CC1=CC[C@@H]1[C@@H]2CC[C@@]2(C)[C@H]1CCC21OCCO1	MTT	1955 µM
CC[C@@H](C(C)C)[C@H](O)[C@@H](O)[C@@H](C)[C@H]1CC[C@H]2[C@@H]3CC(=O)[C@@]4(O)C[C@@H](OC(C)=O)CC[C@]4(C)[C@H]3CC[C@]12C	MTT	461 µM
CCOCn1c([Se]c2ccccc2)c(CC)c(=O)[nH]c1=O		57.7 µM
CC(=O)O[C@H]1CC[C@]2(C)C3CC[C@]4(C)C(=O)CCC4C3CC[C@H]2C1	MTT	361 µM
Nc1nc2c(ncn2[C@H]2C=C(F)[C@@H](CO)S2)c(=O)[nH]1	MTT	>100 µM
C[C@@H]1CC[C@]2(C(=O)O)CC[C@]3(C)C(=CCC4[C@@]5(C)CC[C@H](O)[C@](C)(CO)C5CC[C@]43C)C2[C@H]1C		33.7 µg/mL
CO[C@H]1/C=C/O[C@@]2(C)Oc3c(C)c(O)c4c(O)c(c(/C=N/N5CCN(C)CC5)c(O)c4c3C2=O)NC(=O)/C(C)=C\C=C\[C@H](C)[C@H](O)[C@@H](C)[C@@H](O)[C@@H](C)[C@H](OC(C)=O)[C@@H]1C	MTT	>500 µg/mL
NC(=O)N=C1/C(=C/c2ccco2)CNC/C1=C\c1ccco1	MTT	424 µg/mL
c1cnc2c(c1)ccc1cccnc12		<4.11 µg/mL
O=C(O)c1cn(Cc2ccc(Cl)cc2)cc1-c1ccc(Cl)cc1		8 µg/mL
Fc1ccc(N=C2/C(=C/c3ccco3)CNC/C2=C\c2ccco2)c(F)c1	MTT	382 µg/mL
CCOCn1c([Se]c2ccccc2)cc(=O)[nH]c1=O		28 µM
NC(=O)c1cn([C@H]2C[C@H](O)[C@@H](CO)O2)c2ncnc(N)c12		12 µM
O=[N+]([O-])c1c[nH]cc1-c1ccc(Cl)c(Cl)c1		2 µg/mL
NN=C1/C(=C/c2ccco2)CNC/C1=C\c1ccco1	MTT	76 µg/mL
O=c1ccn([C@@H]2C=C(F)[C@H](CO)S2)c(=O)[nH]1	MTT	>100 µM
CO[C@H]1/C=C/O[C@@]2(C)Oc3c(C)c(O)c4c(O)c(c(/C=N/N5CCN(C)CC5)c(O)c4c3C2=O)NC(=O)/C(C)=C\C=C\[C@H](C)[C@H](O)[C@@H](C)[C@@H](O)[C@@H](C)[C@H](OC(C)=O)[C@@H]1C	MTS	>100 µM
Cn1c2ccccc2c2cc(C=NNc3nc(-c4ccc(O)cc4)cs3)ccc21	MTT	271.1 µM
CC[C@@H](C(C)C)[C@H](O)[C@@H](O)[C@@H](C)[C@H]1CC[C@H]2[C@@H]3CC(=O)C4C[C@H](F)CC[C@]4(C)[C@H]3CC[C@]12C	MTT	301 µM
Nc1ccn([C@@H]2CS[C@@H](CO)O2)c(=O)n1		>100 µM
Oc1c(CN2CCCC2)cc(Nc2cc(/C=C/c3ccc(Cl)cc3)nc(/C=C/c3ccc(Cl)cc3)n2)cc1CN1CCCC1		0.62 µg/mL
CCn1c2ccccc2c2c3c(c4c5ccccc5[nH]c4c21)C(=O)NC3=O		>125 µM
CNC(=O)c1ccc(NC(=O)Nc2ccc(C3=NCCN3)cc2)cc1NC(=O)Nc1cccc(C2=NCCN2)c1		38 µg/mL
CC(=O)O[C@H]1CC[C@@]2(C)C(=CC[C@@H]3[C@@H]2CC[C@]2(C)C(=O)[C@H](OC(C)=O)C[C@@H]32)C1	MTT	1730 µM
COc1ccc(-c2c(C#N)c(NC(=S)Nc3ccccc3)nc3[nH]c(=O)[nH]c(=O)c23)cc1OC		80 µg/mL
CCn1cc(C(=O)NNC)c(=O)c2ccc(-c3ccncc3)cc21		>25 µg/mL
N/C(=N/O)c1cn([C@@H]2O[C@H](CO)[C@@H](O)[C@@H]2O)c2ncnc(N)c12		>100 µM
O=Nc1c(-c2ccccc2)[nH]oc1=O		1.92 µg/mL
Nc1ncnc2ncn(CCOCP(=O)(O)O)c12		246 µg/mL
C[C@@]1(CO)[C@H](O)CC[C@@]2(C)[C@H]1CC[C@H]1C[C@@H]3C[C@@]12CC[C@]3(O)CO		220 µg/mL
Nc1ncnc2c1ncn2COCCO		209 µg/mL
C[C@]12CCC3C(CC[C@H]4C[C@@H](O)CC[C@]34C)C1C=CC2=O	MTT	220 µM
Cc1[nH]nc(C(=O)N/N=C/c2cccs2)c1N=NN(C)C		1.46 µg/mL
Cn1c2ccccc2c2cc(C=NNc3nc(-c4ccc([N+](=O)[O-])cc4)cs3)ccc21	MTT	421.5 µM
Nc1nc(F)nc2c1ncn2[C@H]1CS[C@@H](CO)O1		5.6 µM
N#Cc1c(N)nc2[nH]c(=O)[nH]c(=O)c2c1-c1ccc(Br)cc1		200 µg/mL
N=C(N)c1cn([C@@H]2O[C@H](CO)[C@@H](O)[C@@H]2O)c2ncnc(N)c12		>100 µM
Nc1nc(=O)[nH]s1		31.48 µg/mL
CC[C@@H](C(C)C)[C@H](O)[C@@H](O)[C@@H](C)[C@H]1CC[C@H]2[C@@H]3CC(=O)[C@@]4(O)C[C@@H](O)CC[C@]4(C)[C@H]3CC[C@]12C	MTT	1044 µM
O=c1c2cnn(-c3ccccc3)c2nc2n1N=C(c1ccc(Cl)cc1)CN2c1ccccc1		100 µg/mL
C(=C1/CNC/C(=C\c2ccco2)C1=Nc1ccccc1)/c1ccco1	MTT	370 µg/mL
C=CCn1c2ccccc2c2c(C)c3cnccc3c(C)c21		2.11 µg/mL
O=C1C(=O)N(CCn2cc(CN3CCN(c4cc5c(cc4F)c(=O)c(C(=O)O)cn5C4CC4)CC3)nn2)c2ccccc21	MTT	85.44 µM
CCCCCn1cc(C(N)=O)c(=O)c2ccc(-c3ccncc3)cc21		>6.25 µg/mL
NC(=S)c1cn([C@@H]2O[C@H](CO)[C@@H](O)[C@@H]2O)c2ncnc(N)c12		1 µM
CCN(CC)C(=S)[S][Bi]([S]C(=S)N(CC)CC)[S]C(=S)N(CC)CC		0.42 µg/mL
CO/N=C1/C(=O)N(CCn2cc(CN3CCN(c4cc5c(cc4F)c(=O)c(C(=O)O)cn5C4CC4)CC3)nn2)c2ccc(Cl)cc21	MTT	38.57 µM
Cc1cc2nc3cc(C)c(N)cc3[n+](-c3ccccc3)c2cc1N.[Cl-]		15.62 µg/mL
COc1cc([C@H]2OC[C@]3(O)[C@@H](c4ccc(O)c(OC)c4)OC[C@]23O)ccc1O		13 µg/mL
NC(=O)C1=C[C@H]2[C@H]3C=C[C@@]2(O)C(=O)O[C@@H]3O1		2.12 µg/mL
O=c1ccn([C@H]2C=C(F)[C@@H](CO)S2)c(=O)[nH]1	MTT	>100 µM
CCOC(=O)n1c(=O)nc2c3c(ncn21)Oc1c(c(-c2ccccc2)nn1-c1ccccc1)C3c1ccc(Cl)cc1		1.56 µg/mL
COC(=O)c1cnccn1	MTS	>724 µM
Nc1nc2ncn(COCCCl)c2c(=O)[nH]1		145 µg/mL
CC(=O)c1c(C)cc2cccc(O)c2c1O	MTT	119.6 µg/mL
O=C1C(=O)N(CCn2cc(CN3CCN(c4cc5c(cc4F)c(=O)c(C(=O)O)cn5C4CC4)CC3)nn2)c2ccc(Cl)cc21	MTT	40.37 µM
Cc1cn([C@H]2C=C(F)[C@@H](CO)S2)c(=O)[nH]c1=O	MTT	>100 µM
CC[C@@H](C(C)C)[C@@H](O)[C@H](O)[C@@H](C)[C@H]1CC[C@H]2[C@@H]3CC(=O)[C@H]4C[C@@H](Br)CC[C@]4(C)[C@H]3CC[C@]12C	MTT	114 µM
COc1ccc(-c2c(C#N)c(N)nc3[nH]c(=O)[nH]c(=O)c23)cc1OC		200 µg/mL
Cc1ccc(SCC(=O)NCc2cccs2)cc1		200 µg/mL
O=S(=O)(OC1/C(=C/c2ccco2)CNC/C1=C\c1ccco1)c1ccccc1	MTT	84 µg/mL
Cn1c2ccccc2c2cc(C=NNc3nc(-c4cc5ccccc5oc4=O)cs3)ccc21	MTT	399.2 µM
NNC(=S)NN=C1/C(=C/c2ccco2)CNC/C1=C\c1ccco1	MTT	362 µg/mL
CCn1cc(C(=O)N(C)O)c(=O)c2ccc(-c3ccncc3)cc21		>50 µg/mL
CCN1CCCc2cc3c(C(F)(F)F)cc(=O)oc3cc21		>200 µg/mL
Fc1ccc(N=C2/C(=C/c3ccco3)CNC/C2=C\c2ccco2)cc1	MTT	152 µg/mL
COc1ccc(/C(C)=N/NC(=O)c2ccncc2)c(OC)c1		>10 µg/mL
CC[C@@H](C(C)C)[C@H](O)[C@@H](O)[C@@H](C)[C@H]1CC[C@H]2[C@@H]3CC(=O)[C@H]4C[C@H](O)[C@H](O)C[C@]4(C)[C@H]3CC[C@]12C	MTT	259 µM
Fc1ccc(N=C2/C(=C/c3ccco3)CNC/C2=C\c2ccco2)cc1F	MTT	428 µg/mL
CC1(C)CC[C@]2(C(=O)O)CC[C@]3(C)C(=CCC4[C@@]5(C)CC[C@H](O)C(C)(C)C5CC[C@]43C)C2C1		82.9 µg/mL
O=c1c2cnn(-c3ccccc3)c2nc2n(-c3ccccc3)cnn12		220 µg/mL
CCn1cc(C(N)=O)c(=O)c2ccc(-n3ccnc3)cc21		>50 µg/mL
COc1ccc(Nc2c3ccccc3nc3oc4ccccc4c23)cc1	MTT	3.63 µg/mL
Cn1c2ccccc2c2cc(C=NNc3nc(-c4cccc([N+](=O)[O-])c4)cs3)ccc21	MTT	306 µM
CC1(C)CC(=O)C2=C(C1)N(NC(=O)c1ccncc1)C1=C(C(=O)CC(C)(C)C1)C2c1cccc([N+](=O)[O-])c1	MTT	121 µM
CC[C@@H](C(C)C)[C@@H](O)[C@H](O)[C@@H](C)[C@H]1CC[C@H]2[C@@H]3CC(=O)[C@@]4(O)C[C@@H](F)CC[C@]4(C)[C@H]3CC[C@]12C	MTT	42 µM
Cc1nn2c(=O)c3cnn(-c4ccccc4)c3nc2n1-c1ccccc1		100 µg/mL
COc1cc(C)c2sc3ccccc3c(=O)c2c1NCCCN(C)C		3.43 µg/mL
O=c1c2cnn(-c3ccccc3)c2nc(Nc2ccccc2)n1/N=C/c1ccc(Br)cc1		100 µg/mL
O=C(NCCCl)N1CCC(CN=c2cc3n(-c4ccc(Cl)cc4)c4ccccc4nc-3cc2Nc2ccc(Cl)cc2)CC1		0.6 µg/mL
COc1ccc(-c2c(C#N)c(NC(=S)Nc3ccccc3)nc3[nH]c(=O)[nH]c(=O)c23)c(OC)c1		50 µg/mL
CCOC(=O)c1cn(Cc2ccc(F)cc2)cc1-c1ccc(OC)cc1		2 µg/mL
COc1ccc(-c2csc(NN=Cc3ccc4c(c3)c3ccccc3n4C)n2)cc1OC	MTT	220.8 µM
O=c1c2cnn(-c3ccccc3)c2nc(Nc2ccccc2)n1NC(=S)Nc1ccccc1		220 µg/mL
COc1ccc(C=C2C=C(C(C)(C)C)C(=O)C(C(C)(C)C)=C2)cc1		3 µg/mL
COc1ccc(-c2oc3cc(O)c(OC)c(O)c3c(=O)c2OC)cc1		28.7 µg/mL
Nc1ccn([C@@H]2C=C(F)[C@H](CO)S2)c(=O)n1	MTT	>100 µM
CC(=O)O[C@H]1CC[C@]2(C)C3CC[C@@]4(C)C(C[C@@H](Br)C45OCCO5)C3CC[C@H]2C1	MTT	64.11 µM
OC[C@H]1O[C@@H](n2cnc3c(Cl)ncnc32)CS1		46.5 µM
CC[C@H](/C=C/[C@@H](C)[C@H]1CC[C@H]2[C@@H]3CC(=O)[C@H]4C[C@H](O)[C@H](O)C[C@]4(C)[C@H]3CC[C@]12C)C(C)C	MTT	158 µM
CO[C@@]12[C@H](COC(N)=O)C3=C(C(=O)C(C)=C(N)C3=O)N1C[C@H]1[C@@H]2N1C(=O)c1ccc(Cl)c(Cl)c1		1.9 µg/mL
CCCn1c2ccccc2c2c3c(c4c5ccccc5[nH]c4c21)C(=O)NC3=O		<8 µM

A second listing of 8 rows from above:

structure	read by	result
Cc1cn([C@H]2C=C(F)[C@@H](CO)S2)c(=O)[nH]c1=O	MTT	>100 µM
Nc1nc(F)nc2c1ncn2[C@H]1CS[C@@H](CO)O1		5.6 µM
CC(=O)O[C@H]1CC[C@@]2(C)C(=CC[C@@H]3[C@@H]2CC[C@]2(C)C(=O)[C@H](OC(C)=O)C[C@@H]32)C1	MTT	1730 µM
CNC(=O)c1ccc(NC(=O)Nc2ccc(C3=NCCN3)cc2)cc1NC(=O)Nc1cccc(C2=NCCN2)c1		38 µg/mL
CCn1cc(C(N)=O)c(=O)c2ccc(-n3ccnc3)cc21		>50 µg/mL
CCOC(=O)n1c(=O)nc2c3c(ncn21)Oc1c(c(-c2ccccc2)nn1-c1ccccc1)C3c1ccc(Cl)cc1		1.56 µg/mL
Cn1c2ccccc2c2cc(C=NNc3nc(-c4ccc([N+](=O)[O-])cc4)cs3)ccc21	MTT	421.5 µM
Cn1c2ccccc2c2cc(C=NNc3nc(-c4cc5ccccc5oc4=O)cs3)ccc21	MTT	399.2 µM